A mixed list of measured activities; the numbers were collected in NIAID ChemDB.

Shared fields: host cell toxicity; cells: HepG2; endpoint: CC50

Blank or dashed fields: not listed here.

| smiles | read by | value |
|---|---|---|
| CNC(=O)c1ccc(-n2c(NC(C)C)nc3c(c2=O)C[C@@H](C)N(C(=O)c2ccc(Cl)c(C(F)(F)F)c2Cl)C3)c(C(F)F)c1 | luminescence | 21 µM |
| Cc1cc(NC(=O)c2c(C)c(C(=O)C(=O)NC3CCC(O)CC3)n(C)c2C2CCCC2)ccc1F | MTT | >30 µM |
| O=C(CSc1ccccc1)Nc1ccc(Br)cc1 | luminescence | >100 µM |
| CNC(=O)c1ccc(-n2c([C@@H](O)C(C)C)nc3c(c2=O)C[C@@H](C)N(C(=O)c2ccc(Cl)c(C(F)(F)F)c2)C3)cc1 | luminescence | >50 µM |
| CCOc1ccc(NC(=S)Nc2ccccc2)cc1 | luminescence | >100 µM |
| COc1ccc(F)cc1CNCCCNc1ccnc2cc(-c3cccc4ccccc34)ccc12 | fluorescence | 16 µM |
| CC(C)N(Cc1cccc(OCCCCCC(=O)OC(=O)O)c1)C(=O)c1ccc(-c2cccc(S(C)(=O)=O)c2)cc1 | - | >20 µM |
| COc1cccc(CNCCCNc2ccnc3cc(-c4ccc(C(F)(F)F)cc4)ccc23)c1O | fluorescence | 2.21 µM |
| CNC(=O)c1ccc(-n2c(NC(C)C)nc3c(c2=O)C[C@@H](C)N(C(=O)c2ccc(Br)c(C(F)(F)F)c2)C3)cn1 | luminescence | >50 µM |
| O=C(CSc1ccc(Cl)cc1)Nc1ccc(F)c(Cl)c1 | luminescence | >100 µM |
| CC(C)C[C@@H]1NC(=O)[C@H](Cc2c[nH]c3ccccc23)NC(=O)[C@@H](CCCCN)NC(=O)[C@H](CC(N)=O)NC(=O)[C@H](C(C)C)NC(=O)[C@@H](CC(C)C)N(C)C1=O | MTT | >30 µM |
| Cc1ccc(F)c(NC(=O)c2c(C)c(C(=O)C(=O)NC(C)(C)C)n(C)c2C)c1 | MTT | >30 µM |
| CC(C)C[C@@H]1NC(=O)[C@H](Cc2c[nH]c3ccccc23)NC(=O)[C@@H](CCCCN)NC(=O)[C@H](CCC(N)=O)NC(=O)[C@H](CC(C)C)NC(=O)[C@@H](CC(C)C)NC1=O | MTT | >30 µM |
| COc1cccc(CNCCCNc2ccnc3cc(-c4ccccc4)ccc23)c1O | fluorescence | 3.21 µM |
| COc1ccc(C(O)C(Br)N=[N+]=[N-])cc1OC | - | <13.5 µM |
| CC(C)(C)c1ccc(-c2ccc3c(NCCCNCc4ccco4)ccnc3c2)cc1 | fluorescence | 3.15 µM |
| CC(C)C[C@@H]1NC(=O)[C@H](Cc2c[nH]c3ccccc23)NC(=O)[C@@H](CCCCN)NC(=O)[C@H](CC(N)=O)NC(=O)[C@H](C(C)C)NC(=O)[C@@H](CC(C)C)NC1=O | MTT | >30 µM |
| Cc1cc(NC(=O)c2c(C)c(C(=O)C(=O)NC3C[C@@H]4CC(O)[C@H]3C4)n(C)c2C)ccc1F | MTT | >30 µM |
| CC(C)Oc1cccc(-c2ccc(C(=O)N(Cc3cccc(OCCCCCC(=O)OC(=O)O)c3)C(C)C)cc2)c1 | - | >20 µM |
| O=C(CN1CCC(Cc2ccccc2)CC1)Nc1ccc(Cl)cn1 | luminescence | 21 µM |
| Fc1ccc(Oc2ccc3c(NCCCNCc4ccco4)ccnc3c2)cc1 | fluorescence | 16 µM |
| CCOC(=O)COc1ccc(C(O)O)cc1 | - | >20 µM |
| CNC(=O)c1c(Cl)c(-n2c(NC(C)C)nc3c(c2=O)C[C@@H](C)N(C(=O)c2ccc(Cl)c(C(F)(F)F)c2)C3)nn1C | luminescence | >50 µM |
| COc1ccc(-c2cc(C(=O)O)c3ccccc3n2)cc1OC | - | >20 µM |
| Cc1cc(OCC(=O)N2CCC(C)CC2)ccc1Br | luminescence | 55 µM |
| CCOC(=O)COc1ccc(C=O)cc1 | - | >20 µM |
| COc1ccc(F)cc1CNCCCNc1ccnc2cc(Cc3ccc(F)cc3)ccc12 | fluorescence | 3.53 µM |
| CCc1c(C(=O)Nc2ccc(F)c(C)c2)c(C)n(C)c1C(=O)C(=O)NC1CCC(O)CC1 | MTT | >30 µM |
| C=CCCC1=NCC(O[Si](C)(C)C(C)(C)C)c2cc(OC)c(OC)cc21 | - | <7.5 µM |
| COc1ccc(F)cc1CNCCCNc1ccnc2cc(-c3cc(C(F)(F)F)cc(C(F)(F)F)c3)ccc12 | fluorescence | 0.87 µM |
| CC(=O)c1cccc(-c2ccc(C(=O)N(Cc3cccc(OCCCCCC(=O)OC(=O)O)c3)C(C)C)cc2)c1 | - | >20 µM |
| CC(C)C[C@@H]1NC(=O)[C@H](Cc2c[nH]c3ccccc23)NC(=O)[C@@H](C(C)(C)C)NC(=O)[C@H](CCCCN)NC(=O)[C@H](C(C)C)NC(=O)[C@@H](CC(C)C)NC1=O | MTT | >30 µM |
| CCC(CC)NC(=O)C(=O)c1c(C)c(C(=O)Nc2ccc(F)c(C)c2)c(C)n1C | MTT | 5–30 µM |
| CNC(=O)[C@@H]1CC[C@H](n2c(NC(C)C)nc3c(c2=O)C[C@@H](C)N(C(=O)c2ccc(Cl)c(C(F)(F)F)c2)C3)C1 | luminescence | 15.6 µM |
| Cc1cc(NC(=O)c2c(C)c(C(=O)C(=O)N[C@@H]3C[C@@H](C(=O)O)N(C)C3)n(C)c2C)ccc1F | MTT | >30 µM |
| CC(C)N(Cc1cccc(OCCCCCC(=O)OC(=O)O)c1)C(=O)c1ccc(-c2cccc(C#N)c2)cc1 | - | >20 µM |
| CC(C)C[C@@H]1NC(=O)[C@H](Cc2c[nH]c3ccccc23)NC(=O)[C@@H](CCCCN)NC(=O)[C@H](CCCCN)NC(=O)[C@H](C(C)C)NC(=O)[C@@H](CC(C)C)NC1=O | MTT | >30 µM |
| Cc1c(C(=O)N2CCC(C)(O)CC2)c(C)n(C)c1C(=O)C(=O)NC(C)(C)C | MTT | >30 µM |
| OCc1cn(-c2ccc(F)cc2)nc1-c1ccc(Cl)cc1 | luminescence | 66 µM |

A second listing of 6 rows from above:

smiles,read by,value
CCc1c(C(=O)Nc2ccc(F)c(C)c2)c(C)n(C)c1C(=O)C(=O)NC1CCC(O)CC1,MTT,>30 µM
CNC(=O)c1ccc(-n2c([C@@H](O)C(C)C)nc3c(c2=O)C[C@@H](C)N(C(=O)c2ccc(Cl)c(C(F)(F)F)c2)C3)cc1,luminescence,>50 µM
C=CCCC1=NCC(O[Si](C)(C)C(C)(C)C)c2cc(OC)c(OC)cc21,-,<7.5 µM
Cc1c(C(=O)N2CCC(C)(O)CC2)c(C)n(C)c1C(=O)C(=O)NC(C)(C)C,MTT,>30 µM
CCOC(=O)COc1ccc(C=O)cc1,-,>20 µM
CC(=O)c1cccc(-c2ccc(C(=O)N(Cc3cccc(OCCCCCC(=O)OC(=O)O)c3)C(C)C)cc2)c1,-,>20 µM

Two numbers with a dash give a range or band. CCn: concentration that lowers growth or viability of the cells by n%. Lines come from different laboratories, so protocols vary.